{"source": "PubChem BioAssay AID1259415", "about": "(National Center for Advancing Translational Sciences (NCATS), 2018)", "note": "Only a part is listed here, and it is no random draw. Results filed as inconclusive are left out. Calls of active or inactive are those of the source. No stated cut-off is given here; in the data, active means activity change below about -60%; inconclusive means no clear call, values can overlap the other calls; inactive means above about -39%. On the % scale 0 is the no-effect control and ±100 the full control effect.", "data": [{"assay": "qHTS Assay for inhibitors of the human cytomegalovirus (HCMV)", "settings": "HFF cells, HCMV-luciferase reporter, 72 h; at 57.5 µM; active compounds read low", "in_short": "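Compounds were evaluated in HFFs infected with an HCMV luciferase reporter virus (MOI 1 PFU/cell). Luciferase in lysates collected 72 h post infection served as the replication measure.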", "values": [{"smiles": "O=C(OC1CN2CCC1CC2)c1cccc([N+](=O)[O-])c1", "note": "(stereo not drawn)", "activity change, negative = inhibition": "inactive: 12.9%"}, {"smiles": "CCOC(=O)c1ccc(NC(=O)C(C)(CCl)SC)cc1", "note": "(stereo not drawn)", "activity change, negative = inhibition": "inactive: 70.3%"}, {"smiles": "CCC(C)N(CC(C)C)C(=S)SC(NC(C)=O)C(Cl)(Cl)Cl", "note": "(stereo not drawn)", "activity change, negative = inhibition": "inactive: -30.8%"}, {"smiles": "COC(=O)C1(C)COP(=O)(N2CCCC2)OC1", "note": "(stereo not drawn)", "activity change, negative = inhibition": "inactive: 5.68%"}, {"smiles": "O=C(COc1ccccc1)OC1CN2CCC1CC2", "note": "(stereo not drawn)", "activity change, negative = inhibition": "inactive: 95.8%"}, {"smiles": "O=C(Nc1ccncc1[N+](=O)[O-])c1ccc([N+](=O)[O-])cc1[N+](=O)[O-]", "activity change, negative = inhibition": "active: -73.9%"}, {"smiles": "CCOC(=O)Nc1cccc([As](=O)(O)O)c1", "activity change, negative = inhibition": "inactive: 8.81%"}, {"smiles": "O=P(Nc1ccccn1)(c1cccc2ccccc12)c1cccc2ccccc12", "activity change, negative = inhibition": "inactive: -18.3%"}, {"smiles": "Cc1cc(SC(NC=O)C(Cl)(Cl)Cl)ncn1", "note": "(stereo not drawn)", "activity change, negative = inhibition": "inactive: 1.13%"}, {"smiles": "O=[N+]([O-])c1ccc(Nc2ccc(Oc3ccc([N+](=O)[O-])cc3[N+](=O)[O-])cc2)c([N+](=O)[O-])c1", "activity change, negative = inhibition": "inactive: -7.57%"}, {"smiles": "O=C(O)C(O)c1ccc(N(CCCl)CCCl)cc1", "note": "(stereo not drawn)", "activity change, negative = inhibition": "inactive: 5.24%"}, {"smiles": "CC1CCNP(=O)(N(CCCl)CCCl)O1", "note": "(stereo not drawn)", "activity change, negative = inhibition": "inactive: 17.5%"}, {"smiles": "COP(=O)(OC)N1CC1c1ccccc1", "note": "(stereo not drawn)", "activity change, negative = inhibition": "inactive: -5.89%"}, {"smiles": "CCCCOc1ccc(C(=O)NCC2(N3CCCCC3)CCCCC2)cc1OC", "activity change, negative = inhibition": "inactive: 4.47%"}, {"smiles": "Cc1cc(SC(NC(=O)c2ccccc2)C(Cl)(Cl)Cl)nc(C(C)C)n1", "note": "(stereo not drawn)", "activity change, negative = inhibition": "inactive: -37.4%"}, {"smiles": "Cc1ccc(S(=O)(=O)N(CCCN)CCCc2c(C)nc(N)[nH]c2=O)cc1", "activity change, negative = inhibition": "inactive: 38.8%"}, {"smiles": "O=P1(Nc2ncccn2)COc2ccccc2OC1", "activity change, negative = inhibition": "inactive: -6.55%"}, {"smiles": "Nc1cccc([As](=O)(O)c2ccccc2)c1", "activity change, negative = inhibition": "inactive: -31.3%"}, {"smiles": "O=P1(Nc2ccc(Br)cn2)COc2ccccc2OC1", "activity change, negative = inhibition": "inactive: -15.8%"}, {"smiles": "Cc1ccc(OCC(=O)OC2CN3CCC2CC3)cc1", "note": "(stereo not drawn)", "activity change, negative = inhibition": "inactive: -9.59%"}, {"smiles": "Cc1nn(-c2ccccc2)c2c1P(=O)(N1CCOCC1)N(C)C(c1ccccc1)=N2", "note": "(stereo not drawn)", "activity change, negative = inhibition": "inactive: -5.18%"}, {"smiles": "CC1CCC(C(C)C)C(OP(=O)(Nc2ccccn2)c2ccccc2)C1", "note": "(stereo not drawn)", "activity change, negative = inhibition": "inactive: -22%"}, {"smiles": "Cc1ccc(C(=O)OC2CN3CCC2CC3)cc1", "note": "(stereo not drawn)", "activity change, negative = inhibition": "inactive: 22.8%"}, {"smiles": "CN(C)C1(CNC(=O)c2ccc(S(C)(=O)=O)cc2)CCCCC1", "activity change, negative = inhibition": "inactive: -4.22%"}, {"smiles": "O=C(/C=C/c1ccccc1)OC1CN2CCC1CC2", "note": "(stereo not drawn)", "activity change, negative = inhibition": "inactive: 10.9%"}, {"smiles": "CCCC1OP(=O)(Nc2ccccc2)OCC1CC", "note": "(stereo not drawn)", "activity change, negative = inhibition": "inactive: -32%"}, {"smiles": "COc1ccccc1CNC(=O)COC(=O)C(O)(c1ccccc1)c1ccccc1", "activity change, negative = inhibition": "inactive: 10.7%"}, {"smiles": "CC(C)/C=N\\N=C(\\N)N[N+](=O)[O-]", "activity change, negative = inhibition": "inactive: 2.98%"}, {"smiles": "CN(C(=O)Cc1ccc(Cl)c(Cl)c1)C1CCCC[C@@H]1N1CCCC1", "note": "(stereo partly drawn)", "activity change, negative = inhibition": "inactive: -31%"}, {"smiles": "CC1(CBr)Cn2c(nc3ccccc3c2=O)S1", "note": "(stereo not drawn)", "activity change, negative = inhibition": "inactive: 28.8%"}, {"smiles": "O=P1(Nc2ccccn2)COc2ccccc2OC1", "activity change, negative = inhibition": "inactive: 10.9%"}, {"smiles": "CCC1=CC2Cc3nc4ccc(Cl)cc4c(N)c3C(C1)C2", "note": "(stereo not drawn)", "activity change, negative = inhibition": "inactive: -4.99%"}, {"smiles": "CCOP(=O)(NC(=NC(C)c1ccccc1)NC(C)c1ccccc1)OCC", "note": "(stereo not drawn)", "activity change, negative = inhibition": "inactive: 4.23%"}, {"smiles": "CN(CCCl)Cc1cc(Cl)c(NC2=NCCN2)c(Cl)c1", "activity change, negative = inhibition": "inactive: -7.77%"}, {"smiles": "CCOP(=O)(Nc1ccc(C)cn1)OCC", "activity change, negative = inhibition": "inactive: 25%"}, {"smiles": "O=P1(N(CCCl)CCCl)NCCC(C(F)(F)F)O1", "note": "(stereo not drawn)", "activity change, negative = inhibition": "inactive: 7.95%"}, {"smiles": "Clc1n[nH]nc1-c1nn[nH][15n]1", "activity change, negative = inhibition": "inactive: 29.5%"}, {"smiles": "CC(C)(C)C(=O)NC(Sc1ncccn1)C(Cl)(Cl)Cl", "note": "(stereo not drawn)", "activity change, negative = inhibition": "inactive: -21.8%"}, {"smiles": "Cc1ccc(NCCc2c([N+](=O)[O-])cc([N+](=O)[O-])cc2[N+](=O)[O-])cc1", "activity change, negative = inhibition": "inactive: -28.1%"}, {"smiles": "CCCOP(=S)(Nc1nc(N)cc(=O)[nH]1)OCCC", "activity change, negative = inhibition": "inactive: -3.26%"}, {"smiles": "COc1cc(C2NCCC3(OCCO3)C2(C)C)cc(OC)c1OC", "note": "(stereo not drawn)", "activity change, negative = inhibition": "active: -64.8%"}, {"smiles": "CCOP(=O)(Nc1cccc2ccccc12)OCC", "activity change, negative = inhibition": "inactive: -14.4%"}, {"smiles": "O=C(OC1CN2CCC1CC2)c1ccc(Cl)cc1", "note": "(stereo not drawn)", "activity change, negative = inhibition": "inactive: 15.5%"}, {"smiles": "COc1cc(C(=O)NCC2(N3CCOCC3)CCCCC2)cc(Cl)c1OC(C)C", "activity change, negative = inhibition": "inactive: -19.3%"}, {"smiles": "O=[As](O)(O)c1cccnc1", "activity change, negative = inhibition": "inactive: -21.9%"}, {"smiles": "CS(=O)(=O)c1ccc(Cl)c(NC(=O)COC(=O)C(O)(c2ccccc2)c2ccccc2)c1", "activity change, negative = inhibition": "inactive: 0.954%"}, {"smiles": "Cc1cccc(OCC(=O)OC2CN3CCC2CC3)c1", "note": "(stereo not drawn)", "activity change, negative = inhibition": "inactive: 25.8%"}, {"smiles": "NC(=O)Nc1ccc([As](=O)(O)O)cc1", "activity change, negative = inhibition": "inactive: -1.37%"}, {"smiles": "N#CCCN(C(=O)COC(=O)C(O)(c1ccccc1)c1ccccc1)c1ccc(F)cc1", "activity change, negative = inhibition": "inactive: -16.3%"}, {"smiles": "CCOP1(=S)c2c(C)nn(CCC#N)c2N=C(c2ccc(F)cc2)N1C", "note": "(stereo not drawn)", "activity change, negative = inhibition": "inactive: -25.7%"}, {"smiles": "CN(C(=O)Cc1ccccc1)[C@@H]1CC[C@]2(CCCO2)C[C@H]1N1CCCC1", "activity change, negative = inhibition": "inactive: -34.5%"}, {"smiles": "CN(C)C(=O)c1cc([N+](=O)[O-])cc2c1-c1c(cc([N+](=O)[O-])cc1[N+](=O)[O-])C2=O", "activity change, negative = inhibition": "active: -109%"}, {"smiles": "O=[N+]([O-])c1ccc2c(c1)nnn2O", "activity change, negative = inhibition": "inactive: -8.67%"}, {"smiles": "CN(C(=O)Cc1ccc(Cl)c(Cl)c1)[C@H]1CC[C@@]2(CCCO2)C[C@@H]1N1CCCC1", "activity change, negative = inhibition": "inactive: -35.6%"}, {"smiles": "CCOP1(=S)c2c(C)nn(CCC#N)c2N=C(c2ccccc2F)N1C", "note": "(stereo not drawn)", "activity change, negative = inhibition": "inactive: -18.7%"}, {"smiles": "O=P(Nc1nccs1)(Oc1ccccc1)Oc1ccccc1", "activity change, negative = inhibition": "inactive: -28.8%"}, {"smiles": "Nc1ccccc1[As](=O)(O)c1ccccc1", "activity change, negative = inhibition": "inactive: -26.4%"}, {"smiles": "O=C(O)COc1ccc([As](=O)(O)O)cc1[N+](=O)[O-]", "activity change, negative = inhibition": "inactive: -3.61%"}]}]}
